{
  "source": "ChEMBL document CHEMBL1255389",
  "about": "“Exploiting the drug-activating properties of a novel trypanosomal nitroreductase” (Antimicrob Agents Chemother, 2010)",
  "key": {"[1]": {"test_system": "Trypanosoma brucei", "test": "Antiparasitic activity against Trypanosoma brucei BSF after 3 days by Alamar blue assay"}, "[2]": {"test": "Therapeutic index, ratio of IC50 against human THP1 cells to IC50 against Trypanosoma brucei", "assay_type": "cell-based", "details": "thp-1"}},
  "note": "pIC50: −log10 of the molar value.",
  "data": [
    {"compound": "O=C(OCc1ccc([N+](=O)[O-])cc1)N(CCCl)CCCl", "values": [
      {"measurement": "pIC50", "setting": "[1]", "value": 5.74},
      {"measurement": "Ratio IC50", "setting": "[2]", "value": 36}
    ]}
  ]
}
